Assay results as given in article doi:10.64898/2025.12.30.696991 (bioRxiv, 2026).

Tested on: proteins of S. Typhimurium-infected RAW 264.7 cell lysate
Assay: Proteomic analysis via affinity capture (compound-conjugated agarose beads, LC-MS/MS)
Set-up: species or system Mus musculus
Details: Log2 fold-change >2 and p < 0.05
[1] = experiment 1 (341: the one experiment)

| SMILES | proteins enriched on compound-beads compared to control beads [1] | proteins enriched on compound-beads compared to control beads (experiment 2) [proteins] |
| --- | --- | --- |
| NCC(=O)Nc1ccc(-n2nc(C(F)(F)F)cc2C2CCCCC2)cc1 [Compound 341] | 316 proteins | – |
| FC(F)(F)c1cc(C2CCCCC2)n(-c2ccc(OC3CCNCC3)cc2)n1 [Compound 370] | 1,254 proteins | 354 |
